The assay can be described thus: Inhibition of SARS CoV papain-like protease (1541 to 1855 residues) using Arg-Leu-Arg-Gly-Gly-AMC as substrate preincubated for 5 mins followed by substrate addition and shaken for 30 secs and further incubated for 6 mins by fluorescence method. Set-up: species or system Severe acute respiratory syndrome-related coronavirus.

`Cc1ccccc1C(=O)N[C@@H](C)c1cccc2ccccc12` had a half-inhibitory concentration (IC50) of 2300 nM.
